Measured values from paper PMC5531588, “Staphylococcus aureus single-stranded DNA-binding protein SsbA can bind but cannot stimulate PriA helicase”.
The exact form of at least one protein or probe is not confirmed. Tags and fusion partners may be left off the protein sequences shown.

Target: T1, SaSsbA (Staphylococcus aureus subsp. aureus ED98) (UniProt A0A0D1JHQ1)
T1 sequence (looked up, limits assumed): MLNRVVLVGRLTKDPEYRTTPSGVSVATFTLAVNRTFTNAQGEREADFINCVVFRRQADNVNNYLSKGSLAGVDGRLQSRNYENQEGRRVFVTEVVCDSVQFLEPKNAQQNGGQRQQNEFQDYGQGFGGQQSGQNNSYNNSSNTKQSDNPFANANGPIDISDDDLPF
Experiment: EMSA
Details: EMSA: 20 mM Tris-HCl pH 8.0, 100 mM NaCl (or 0.4 M NaCl), 1.7 nM DNA, 25 C, 30 min, native 8% PAGE in TBE at 4 C, recombinant protein, label: 32P (5' end, T4 PNK), single-stranded DNA

Sequence | half-maximal binding (100 mM NaCl) [nM] | half-maximal binding (0.4 M NaCl) [nM]
TTTTTTTTTTTTTTT [dT15] | > 2000 | 
TTTTTTTTTTTTTTTTTTTTTTTTTTTTTTTTTTTTTTTT [dT40] |  | 180
